Values quoted from earlier work, collected in patent publication US9408846B2, “Formulations and methods for delaying onset of chronic neuropathic pain” (dated 2016).

Tested on: sciatic nerve
Details: without epinephrine, most effective doses

For `NC1=N[C@H](O)[C@H]2[C@H]3O[C@]4(O)O[C@@H]([C@@H](O)[C@@]2(N1)[C@@H]4O)[C@]3(O)CO`, which “toxicity with sciatic nerve block” value is on record?
The value was “considerable toxicity”.
